The values are deposited in ChEMBL (CHEMBL3988442, “University of Dundee, Small-Polar-MMV Screening Library” (2021)).

The filed quantity is “Percent Effect” (%).
How 0% and 100% were set is not recorded. Most values in the screen are low, and negative values occur.
Many other results are left out here, so strong results are more common than in the screen.
A dash means the value is not listed here; it may have been measured.

Mtb cholesterol medium: 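Phenotypic screen: M. tuberculosis growth, cholesterol and DPPC medium, 4 days; the read-out is not stated. Compounds at 500 µM. Direction is inferred from retests: higher values go with more growth inhibition. Of about 18,000 compounds tested this way, about 900 (5%) reached 50% or more in at least one test.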
Mtb glucose medium: 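Growth of Mycobacterium tuberculosis over 3 days (7H9 medium with glucose and tyloxapol); the read-out is not stated. Tested at 500 µM. The record gives no direction; compounds that gave an IC50 in retests scored well above the rest, so higher reads as more growth inhibition. Size under these conditions: about 18,000 compounds, about 1,400 of them at 50% or above in at least one test.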

| structure | Mtb cholesterol medium | Mtb glucose medium |
|---|---|---|
| `O=C(c1nc(N2CCCC2)ncc1Cl)N1CCSCC1` | - | 31.1 |
| `Cc1csc(NC(=O)NCC2(O)CCN(C)CC2)n1` | 0.9218 | - |
| `CN(C)C(=O)COC(=O)c1ccc2ncsc2c1` | - | 49.82 |
| `CC(C)NC1CCN(C(=O)Nc2ccncc2)CC1` | 0.748 | - |
| `COCC(C)NC(=O)CNc1ccccc1OC(F)F` (stereo unspecified) | 11.96 | 19.24 |
| `CC(=O)c1cc(C(=O)NCc2cn3c(n2)SCC3)cs1` | - | 14.95 |
| `CCN(C(=O)c1coc(S(=O)(=O)NC)c1)C1CC1` | - | 10.24 |
| `CCN(CC)CCOc1ccccc1CN` | - | -10.28 |
| `Nc1cnccc1N1CCCC1` | -5.913 | - |
| `c1ccc2c(N3CCNCC3)cncc2c1` | 77.68 | 15.22 |
| `Cc1ccccc1-c1[nH][nH]c(=O)c1CCN` | - | 58.51 |
| `CCSc1ccc(NC(=O)NCCN(C)C)cn1` | - | -18.76 |
| `CN(Cc1cc(C2CC2)[nH]n1)C(=O)Cc1cccnc1` | - | -4.867 |
| `COC(=O)CCCC(=O)N(C)c1ccccc1F` | - | 38.02 |
| `CCC=C(C)C(=O)NCC(=O)N1CCCC1` | - | 8.175 |
| `O=C(c1cc(Br)c[nH]1)N1CCCCC1` | 13.75 | 13.41 |
| `O=C(c1ccc(F)cc1)N1C[C@@H]2CCN[C@@H]2C1` | 2.265 | - |
| `CC(C)c1nccn1CC(=O)NC(=O)NC1CC1` | - | -0.8394 |
| `CC(CO)(CO)NC(=O)c1ccc(-c2ccccc2)o1` | -9.335 | 3.224 |
| `CC(C)N(C)S(=O)(=O)N1CCCN(C)CC1` | - | 1.436 |
| `CC(C)c1cc(C(=O)NCCN(C)S(C)(=O)=O)no1` | -1.445 | 31.38 |
| `CC(C)OCc1nc(C(C)N)no1` (stereo unspecified) | - | 11.18 |
| `Cc1cc(CS(=O)(=O)c2ccccn2)no1` | - | 9.106 |
| `CCCOc1ccc(NS(=O)(=O)N(C)C)cc1Cl` | 90.6 | 17.65 |
| `NCC(=O)N1CCCCC1` | 0.6719 | - |
| `O=C(NCCc1ccccn1)C1CCC1` | - | 20.35 |
| `NS(=O)(=O)NCCc1ccc(-n2cccn2)cc1` | - | 22.73 |
| `Cc1cc(NC(=O)Nc2cnn(C)c2)n(C)n1` | -5.885 | - |
| `CN1CCCCC1CN1CCc2c(c(CO)nn2C)C1` (stereo unspecified) | - | -34.3 |
| `COc1ccc(NCCCO)cc1` | - | 43.87 |
| `Cc1ccc(-n2nnnc2NC2CC2)cc1` | 26.06 | 51.88 |
| `N[C@@H]1CC[C@@H]1NS(=O)(=O)Cc1ccccc1` | - | 28.2 |
| `COCCCN1CCC(CNc2cc(C)nc(N)n2)C1` (stereo unspecified) | 2.2 | - |
| `NCCNC(=O)c1ccc(-c2ccc(Cl)cc2)s1` | 99.42 | 96.41 |
| `CC(C)(CO)CCCNC(=O)N1CCSCC1` | - | 10.13 |
| `CC(=O)c1ccc(OCCN(C)C)cc1` | 2.37 | 3.088 |
| `CCOc1ccccc1NC(=O)NC1CCN(C)CC1` | 19.42 | - |
| `COc1ccc(NC(=O)CCN2CCCSCC2)cc1` | 13.84 | - |
| `CC(=O)NC(C(=O)N(C)Cc1cccs1)C(C)C` (stereo unspecified) | 9.553 | 14.96 |
| `Cn1nccc1CNC1CC1` | -0.8033 | - |
| `CS(=O)(=O)c1ccc(NC(=O)c2cnsn2)cc1` | 10.52 | - |
| `Ic1nnnn1-c1ccccc1` | 116 | 107.2 |
| `NCCCN(C(=O)C1CCC1)C1CC1` | 13.28 | - |
| `CN(C)C(C)(C)CNC(=O)NCCC1CCCCO1` (stereo unspecified) | - | 63.32 |
| `CC1(C)CS(=O)(=O)CCN1Cc1ccc(Cl)cc1F` | -2.13 | - |
| `CNC1CCN(c2cc(OC)cc(OC)c2)C1` (stereo unspecified) | 52.88 | 70.54 |
| `N#CCCCn1nnc(-c2ccccc2)n1` | 71.66 | 60.44 |
| `CCCn1cnnc1CNC(=O)Cn1nc(C)cc1N` | - | 4.623 |
| `CCOCCC(=O)N1CCN(C(C)c2ccsc2)CC1` (stereo unspecified) | - | 38.12 |
| `O=C(NCC(O)c1c(F)cccc1F)c1cc(Br)c[nH]1` (stereo unspecified) | -17.34 | - |
| `Cn1cc(NC(=O)c2ccc(Br)s2)cc1C(N)=O` | 105.5 | 99.25 |
| `O=C(NCc1ccc2c(c1)OCO2)NCC(F)(F)F` | - | 43.53 |
| `COc1ccc(OC)c(NC(=O)N(C)CCN(C)C)c1` | - | 27.38 |
| `Cc1nonc1CC(=O)N(C)CCN1CCCCC1=O` | -14.08 | - |
| `Cc1noc(CN2CCC(NC(=O)C(C)C)CC2)n1` | - | -5.851 |
| `O=C1CCN(CC(O)c2ccccc2F)CCN1` (stereo unspecified) | - | -1.123 |
| `Cc1nnnn1-c1cccc(-n2cnnn2)c1` | 8.535 | 11.2 |
| `O=C(Nc1nccs1)C1CCCN(C(=O)NC2CC2)C1` (stereo unspecified) | - | 17.07 |
| `CCOc1ncc(C(=O)NCc2ccnn2C)cc1Cl` | 33 | 48.07 |
| `CCC(CC)c1cc(N)on1` | - | 19.27 |
| `CS(=O)(=O)N1CCOc2ncccc21` | - | -3.525 |
| `CCN(CC)C(=O)Cn1nc(C)c(C#N)c1N` | 3.922 | 2.624 |
| `Cc1nnc(SC(C#N)C2CCCCC2)n1CC(N)=O` (stereo unspecified) | - | 22.71 |
| `CC1CSc2ccccc2C(=O)N1` (stereo unspecified) | - | -1.431 |
| `COc1cc(Cl)cc(CN(C)[C@H]2COC[C@@H]2O)c1OC` | 8.008 | - |
| `COc1ccc(CN(C)CC(N)=O)c(Br)c1OC` | 18.49 | - |
| `CCC(NC(=O)CCSC)c1ncnn1C` (stereo unspecified) | - | -8.58 |
| `CC(=O)Nc1nc(C)c(S(=O)(=O)N2CCCC2)s1` | - | -0.2343 |
| `Cc1csc(CNC(=O)Cn2nc(C)cc2C)n1` | - | 8.253 |
| `NCc1nnc2n1CC(C(F)(F)F)CC2` (stereo unspecified) | - | 6.091 |
| `CC1C(=O)CCCN1C(=O)OC(C)(C)C` (stereo unspecified) | -2.404 | - |
| `C[C@@H](NC(=O)Nc1nccn(C)c1=O)c1ccccc1` | - | 23.97 |
| `c1cc(NCC2CCCO2)cnn1` (stereo unspecified) | - | 20.52 |
| `CCSCC(=O)NCc1cccc(C(=O)NC2CC2)c1` | - | -1.263 |
| `CN1CCOCC1C(=O)NCCCNc1ccccc1` (stereo unspecified) | - | 23.35 |
| `CC1CN(C)CCN1C(=O)c1cc(-c2ccco2)[nH]n1` (stereo unspecified) | - | -19.81 |
| `NCCC1CNCCO1` (stereo unspecified) | - | 4.063 |

4 of the entries, repeated:

structure	Mtb cholesterol medium	Mtb glucose medium
Cc1cc(NC(=O)Nc2cnn(C)c2)n(C)n1	-5.885	-
c1ccc2c(N3CCNCC3)cncc2c1	77.68	15.22
Cn1cc(NC(=O)c2ccc(Br)s2)cc1C(N)=O	105.5	99.25
CC(C)c1cc(C(=O)NCCN(C)S(C)(=O)=O)no1	-1.445	31.38